Publication PMC10780275, “Evaluation of Anti-Trypanosoma cruzi Activity of Chemical Constituents from Baccharis sphenophylla Isolated Using High-Performance Countercurrent Chromatography” (Molecules, 2023)

What was measured:
T. cruzi trypomastigote = assay: Activity against trypomastigote forms of T. cruzi (resazurin viability, 24 h); type: cell-based, Trypanosoma cruzi (Y strain); conditions: selectivity index = CC50 against NCTC cells / EC50 against trypomastigotes
Description: NCTC cells (clone 929, ATCC) were cultured in RPMI-1640 supplemented with 10% of fetal bovine serum (FBS), at 37 °C within a 5% CO2-humidified incubator. To collect peritoneal macrophages, the abdominal cavity of female BALB/c mice was rinsed with an RPMI-1640 medium, containing 10% FBS. These macrophages were then cultured overnight at 37 °C in a 5% CO2-humidified incubator. Trypanosoma cruzi trypomastigotes (Y strain) were maintained within Rhesus monkey kidney epithelial cells (LLC-MK2) cells using an RPMI-1640 medium supplemented with 2% FBS, and the incubation took place at 37 °C with 5% CO2 and humidity.
Tests of the activity from compounds 1–8 against the trypomastigote form of T. cruzi was performed, according to procedures previously reported. Trypomastigotes, in a concentration of 1 × 10^6 parasites/well, were seeded in 96-well plates and incubated with the tested compounds, alongside the standard drug benznidazole, in serial dilutions ranging from 1.7 to 150 μM, for 24 h at 37 °C in a 5% CO2 incubator. Subsequently, 20 μL of 10% resazurin was added, in order to determine cell viability. Absorbance was read in a plate spectrofluorometer Filter Max F5 Multi-Mode Microplate Reader at 570 nm. Untreated cells were used as negative controls, and cells treated with benznidazole were used as positive controls. The 50% effective concentration (EC50) against trypomastigote forms was determined by the regression of a sigmoid dose–response curve expressed in μM.
The CC50 and EC50 values were derived through the analysis of sigmoidal dose–response curves using GraphPad Prism 6.0 software. The samples were subjected to duplicate testing, and the experiments were replicated a minimum of two times.

T. cruzi amastigote = assay: Activity against intracellular amastigotes of T. cruzi within infected macrophages (Giemsa, light microscope, 48 h); type: cell-based, Trypanosoma cruzi (Y strain); conditions: selectivity index = CC50 against NCTC cells / EC50 against amastigotes
Description: The experimental animals were sourced from the animal breeding facility located at Instituto Adolfo Lutz in São Paulo State, Brazil. Peritoneal macrophages were extracted from female BALB/c mice for intracellular experiments, while male BALB/c mice were utilized to sustain T. cruzi. These animals were provided unlimited access to both water and food, residing in sterilized enclosures within a meticulously regulated environment. All procedures were previously approved by the Animal Ethics Commission of Instituto Adolfo Lutz.
NCTC cells (clone 929, ATCC) were cultured in RPMI-1640 supplemented with 10% of fetal bovine serum (FBS), at 37 °C within a 5% CO2-humidified incubator. To collect peritoneal macrophages, the abdominal cavity of female BALB/c mice was rinsed with an RPMI-1640 medium, containing 10% FBS. […]
The EC50 values for compounds 1–8 against intracellular amastigotes of T. cruzi were determined within infected macrophages. […] Trypomastigotes, previously derived from infected LLC-MK2 cells, underwent washing in an RPMI-1640 medium, were quantified, and were then employed to infect the macrophages at a concentration of 1 × 10^6 trypomastigotes per well. […] At the final stage of the experiment, the chamber slides were fixed using MeOH and stained with Giemsa before being assessed under a light microscope (Thermo EVOS M5000). […]

Compound | T. cruzi Trypomastigote SI (T. cruzi trypomastigote) | T. cruzi Amastigote SI (T. cruzi amastigote) | T. cruzi Trypomastigote SI (T. cruzi trypomastigote; listed as benznidazole)
COC1C[C@@H](CC[C@@H]2[C@@H](C)CC=C3C(CO)(CO)CCC[C@@]32C)CO1 (relative stereo) [Compound 1, 15,16-epoxy-18,19-dihydroxy-16-methoxy-syn-labd-5-ene] | >10.0 | – | –
O=C(Cn1ccnc1[N+](=O)[O-])NCc1ccccc1 [Benznidazole, benznidazole, reference compound] | >10.7 | >36.4 | > 10.7
C[C@H]1CC=C2C(CO)(CO)CCC[C@]2(C)[C@@H]1CC[C@H](CCO)COC(=O)/C=C/c1ccc(O)cc1 [Compound 2, gaudichaudol C] | > 68.7 | – | –
C=C1C[C@@]23CC[C@H]4[C@@](C)(CCC[C@@]4(C)C(=O)O)[C@@H]2CC[C@@H]1C3 [Compound 3, Ent-kaur-16-en-19-oic acid] | >18.8 | – | –
COc1c(O)cc2oc(-c3ccc(O)c(O)c3)cc(=O)c2c1O [Compound 5, Eupafolin] | – | > 74.1 | –
